Drawing on PubChem BioAssay AID624173 (National Center for Advancing Translational Sciences (NCATS), 2012), this text covers activity, negative = inhibition for 55 compounds.

This is a selection; strong and weak results do not stand in their true shares. Active and inactive are the calls of the source. Calls come from the whole dose curve; as a rule, active = well fitted inhibition curve with a large enough effect; inconclusive = small, poorly fitted or top-dose-only effect; inactive = flat fitted curve, though single readings scatter.
% is set by controls: 0 for no effect and ±100 for the full control effect.

The assay addresses pyruvate kinase (Trypanosoma brucei) (UniProt Q57TT1). The assay is described as follows: qHTS of Trypanosoma Brucei Inhibitors. Note: nearly all actives have a fitted effect of over 50% in size. The settings on record: TbPYK enzyme, Kinase-Glo Plus ATP luminescence, 45 min; at 76.8 µM (top of the series) unless noted.
Turning to `CP(=S)(Nn1cnnc1)Oc1ccccc1` (stereo not given), the activity, negative = inhibition is inactive: -5.36%.

Take `CP(=O)(Nc1ccccc1Br)Oc1ccccc1` (stereo not given): the activity, negative = inhibition was inactive: 0.01%.

Take `COc1ccccc1OP(C)(=O)Nc1ccccc1` (stereo not given): the activity, negative = inhibition is inactive: 0.629%.

For `CP(=O)(Oc1ccccc1)OC(c1ccccc1)C(F)(F)F` (stereo not given), the activity, negative = inhibition is inactive: -0.911%.

Consider `Cc1cccc(C)c1OP(C)(=O)Nc1ccc(SC(F)(F)F)cc1` (stereo not given), for which the activity, negative = inhibition was inactive: -1.52%. The value for `CP(=O)(Nc1ccc(SC(F)(F)F)cc1)Oc1ccc(Cl)cc1` (stereo not given) was inactive: 2.14%; that for `Cc1cc(C)cc(OP(C)(=O)Nc2ccc(SC(F)(F)F)cc2)c1` (stereo not given) was inactive: 5.38%.

On to `CP(=O)(NC(=O)Nc1ccccc1)Oc1ccccc1` (stereo not given), for which the activity, negative = inhibition is inactive: 5.18%.

Consider `CCc1ccc(OP(C)(=O)N2CCN(c3ccc([N+](=O)[O-])cc3)CC2)cc1` (stereo not given), for which the activity, negative = inhibition was inactive: -3.12%.

Turning to `CN(C)CCS`, the activity, negative = inhibition was inactive: -7.51%. As for `CCOC(=O)c1ccc(NP(C)(=O)Oc2ccc(OC)cc2)cc1` (stereo not given), the figure is inactive: -2.05%; as for `O=[N+]([O-])c1cc([N+](=O)[O-])c(O)c([N+](=O)[O-])c1.c1ccc(Oc2ccncc2)cc1`, inactive: 3.68%; as for `CCOP(C)(=S)SCC(=O)NC(C)C(=O)O` (stereo not given), inactive: 1.48%. As for `CP(=O)(Nc1ccccn1)Oc1ccc(Cl)cc1` (stereo not given), the figure is inactive: 4.11%; as for `CCN(CC)CCCOC(=O)C(O)(c1ccccc1)c1ccccc1`, inactive: -4.17%; as for `COc1ccccc1-c1ccccn1.O=[N+]([O-])c1cc([N+](=O)[O-])c(O)c([N+](=O)[O-])c1`, inactive: 3.09%. In the case of `O=[N+]([O-])c1cc([N+](=O)[O-])c(Nc2cccnc2)c([N+](=O)[O-])c1`, the activity, negative = inhibition was inactive: -1.23%. The value for `O=[N+]([O-])c1ccc2c(c1)C=Nc1ccccc1O2` was inactive: -7.49%; that for `Cc1cccc(C)c1OP(C)(N)=O` (stereo not given) was inactive: 1.15%; that for `CC(C)(C)c1ccc(OP(C)(=O)Nc2ccc(SC(F)(F)F)cc2)cc1` (stereo not given) was inactive: -7.2%. As for `Cc1ccc(NP(C)(=O)Oc2ccccc2)c(C)c1` (stereo not given), the figure is inactive: 1.59%; as for `COc1ccccc1OP(C)(=O)Nc1ccc(C)cc1` (stereo not given), inactive: 3.78%; as for `CCOC(=O)c1ccc(NP(C)(=O)Oc2ccccc2)cc1` (stereo not given), inactive: -5.76%.

As for `Cc1cc(C)cc(OP(C)(N)=O)c1` (stereo not given), the activity, negative = inhibition is inactive: 5.4%. The value for `COc1ccc(OP(C)(=O)Nc2cccc(F)c2)cc1` (stereo not given) was inactive: 7.64%. As for `COc1ccccc1OP(C)(=O)Nc1cc(Cl)ccc1C` (stereo not given), the figure is inactive: -8.19%; as for `CC1=NCCc2c1[nH]c1ccccc21.O=[N+]([O-])c1cc([N+](=O)[O-])c(O)c([N+](=O)[O-])c1`, inactive: -12.8%; as for `COc1ccccc1OP(C)(=O)Nc1cccc(Br)c1` (stereo not given), inactive: 7.41%.

Take `CCOC(=O)c1ccc(NP(C)(=O)Oc2cc(C)cc(C)c2)cc1` (stereo not given): the activity, negative = inhibition was inactive: 7.12%. The value for `Cc1cc(C)cc(OP(C)(=O)Nc2ccc(C)cc2C)c1` (stereo not given) was inactive: 0.608%; that for `Cc1ccc(C)c(NP(C)(=O)Oc2ccccc2)c1` (stereo not given) was inactive: -12.9%; that for `Cc1cc(C)cc(OP(C)(=O)Nc2ccccn2)c1` (stereo not given) was inactive: 0%.

In the case of `CP(=O)(Nc1cccc(Br)c1)Oc1ccccc1` (stereo not given), the activity, negative = inhibition is inactive: 0.631%. The value for `O=[N+]([O-])c1cc([N+](=O)[O-])c(-n2nnc3ccccc32)c([N+](=O)[O-])c1` was inactive: -6.21%; that for `CC(C)N(CCCl)C(C)C` was inactive: -4.38%; that for `CN(Cc1cccnc1)C(=O)COc1ccc(Cl)c(Cl)c1.O=[N+]([O-])c1cc([N+](=O)[O-])c(O)c([N+](=O)[O-])c1` was inactive: 3.54%. The value for `O=[N+]([O-])c1cc([N+](=O)[O-])c(-c2cnn(-c3ccccc3)c2)c([N+](=O)[O-])c1` was inactive: 1.04%; that for `CC1=C2N=C(C=C3N=C(C(C)=C4[N-][C@@](C)([C@@H]5N=C1[C@](C)(CCC(=O)NC[C@@H](C)OP(=O)([O-])O[C@H]1[C@@H](O)[C@@H](n6cnc7cc(C)c(C)cc76)O[C@@H]1CO)[C@H]5CC(N)=O)[C@@](C)(CC(N)=O)[C@@H]4CCC(N)=O)[C@@](C)(CC(N)=O)[C@@H]3CCC(N)=O)C(C)(C)[C@@H]2CCC(N)=O.[C-]#N.[Co+3]` was inactive: -1.78%; that for `O=[N+]([O-])c1cc([N+](=O)[O-])c(Nc2nnnn2CCO)c([N+](=O)[O-])c1` was inactive: -3.56%.

In the case of `COc1ccccc1OP(C)(=O)Nc1c(C)cccc1C` (stereo not given), the activity, negative = inhibition is inactive: -1.54%.

Turning to `CN1CCCCC1COC(=O)C1(O)c2ccccc2CCc2ccccc21` (stereo not given), the activity, negative = inhibition is inactive: -6.13%.

Take `CCCOc1ccc(NP(C)(=O)Oc2ccc(Cl)cc2)cc1` (stereo not given): the activity, negative = inhibition is inactive: -1.94%. As for `CP(=O)(Nc1ccc(SC(F)(F)F)cc1)Oc1ccccc1` (stereo not given), the figure is inactive: -4.1%. As for `CN(C)CCOC(=O)C(O)(c1ccccc1)C1CCCCC1` (stereo not given), the figure is inactive: -9.54%.

Take `O=[N+]([O-])c1ccc(OP2(=O)COCCO2)cc1` (stereo not given): the activity, negative = inhibition was inactive: 6.22%. As for `Cc1cc(-c2cccc3ccccc23)c(C)cn1.O=[N+]([O-])c1cc([N+](=O)[O-])c(O)c([N+](=O)[O-])c1`, the activity, negative = inhibition was inactive: -0.743%. As for `Cc1c(C(c2ccc3c(c2)OCO3)c2c(C)n(C)n(-c3ccccc3)c2=O)c(=O)n(-c2ccccc2)n1C.O=[N+]([O-])c1cc([N+](=O)[O-])c(O)c([N+](=O)[O-])c1`, the figure is inactive: 35.9%. The value for `CP(=O)(Nc1ccc(SC(F)(F)F)cc1)Oc1ccc(F)cc1` (stereo not given) was inactive: -17.2%.

On to `CCOP(C)(=S)SCC(=O)NC(C)(CC)C(=O)O` (stereo not given), for which the activity, negative = inhibition is inactive: -1.92%. On to `CP(=O)(Nc1ccc2c(c1)OCCO2)Oc1ccccc1` (stereo not given), for which the activity, negative = inhibition is inactive: 0.197%.

With `Cc1ccccc1NP(C)(=O)Nc1ccccc1C`, the activity, negative = inhibition was inactive: 1.96%. The value for `O=[N+]([O-])c1cc([N+](=O)[O-])c(C(F)(F)F)c([N+](=O)[O-])c1O` was inactive: 1.31%; that for `CP(=O)(Nc1ccccc1F)Oc1ccccc1` (stereo not given) was inactive: -11%; that for `CC(C)c1ccc(OP(C)(=O)Nc2ccc(SC(F)(F)F)cc2)cc1` (stereo not given) was inactive: 2.83%. The value for `O=C(OCCN1CCN(CCOCc2ccccc2)CC1)C(O)(c1ccccc1)c1ccccc1` was inactive: -0.542%.
